Reference: patent US20130309248A1 (CRUCELL HOLLAND B V, published 2013)

Columns and labels:
[1] = biological target: T1, HA of virus A/Hong Kong/1/68 (H3N2) (influenza A virus (H3N2), UniProt Q91MA7 17-566); assay: cell-based or functional assay
[2] = biological target: T1, HA of virus A/Hong Kong/1/68 (H3N2); assay: cell-based or functional assay; remark: listed apart in the source

B1: CR8041 (antibody, V domains shown)
VH: QVQLVQSGAEVKKPGASVKVSCQASGYTFTSFGLSWVRQAPGQGPEWMGWISAYNGEIKYAQKFQGRVSMTTDTSTRTAYMEVRSLRPDDTAVYYCAREPPLYFSSWSLDF
VL: EIVLTQSPGTLSLSPGERATLSCRASQSVSSNYLAWFQQKPGQAPRLLIYGASRRATGIPDRFSGSGSGTDFTLTISRLEPEDFAVYYCQQYDSSPRT
SK50 titer [1]: 1.7 µg/mL | Neutralization titer SK50 [2]: 1.05 µg/mL
